Percent effect of library compounds

The values are deposited in ChEMBL (CHEMBL3988442, “University of Dundee, Small-Polar-MMV Screening Library” (2021)).

Values are the deposited “Percent Effect”, in %. The controls that fix the scale are not given in the record; negative values are as filed. Many other results are left out here, so strong results are more common than in the screen. A dash means the value is not listed here; it may have been measured.

Mtb cholesterol medium: 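Whole-cell growth test on Mycobacterium tuberculosis, read after 4 days in a medium based on cholesterol and the lipid DPPC; the read-out is not stated. Compounds at 500 µM. Higher reads as more growth inhibition (inferred: compounds with an IC50 in retests scored well above the rest). Of about 18,000 compounds tested this way, about 900 (5%) reached 50% or more in at least one test.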
Mtb glucose medium: 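Whole-cell growth test on Mycobacterium tuberculosis, read after 3 days in glucose-containing 7H9 medium; the read-out is not stated. Tested at 500 µM. The record gives no direction; compounds that gave an IC50 in retests scored well above the rest, so higher reads as more growth inhibition. Size under these conditions: about 18,000 compounds, about 1,400 of them at 50% or above in at least one test.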

Compound	Mtb cholesterol medium	Mtb glucose medium
O=C1CC2(CCCNC2)CN1 (stereo unspecified)	-	6.728%
CCc1nnc(C2CNCCO2)o1 (stereo unspecified)	9.757%	-
Cc1c[nH]c(CN(C)Cc2ccc(S(C)(=O)=O)cc2)n1	-	3.968%
CN(C)CCN(C)S(N)(=O)=O	-	11.34%
CCC(NC(=O)Cn1nc(C)c(Cl)c1C)[C@H]1C[C@H](O)C1 (stereo partly specified)	6.689%	-
NCc1noc2c1CCCC2	79.5%	-
CCCc1cc(CN(C)C(=O)c2cccs2)n[nH]1	66.92%	69.52%
CC(Oc1ccc(Cl)cc1)C(=O)N(C)C (stereo unspecified)	-	50.05%
CNC1CCc2nnc(C)n2CC1 (stereo unspecified)	-10.58%	-
CCn1cc(Br)c(=O)c(NC(=O)Cc2cccnc2)c1	-	-0.3514%
CCNC(=O)C(C)Sc1nc(N)c2ccsc2n1 (stereo unspecified)	11.7%	32.13%
CCN1CCCN(C(=O)c2ccc(C)c(F)c2)CC1	-6.977%	-
CCC[C@H]1CN(C(=O)c2nn(C)c(C)c2Cl)C[C@@H]1N	-	21%
Cc1ccc(C(C)CNC(=O)CCS(C)(=O)=O)cc1 (stereo unspecified)	8.163%	28.28%
Cn1cc(CCCO)cn1	-	-28.15%
CNC(=O)C(C)S(=O)(=O)Cc1ccc(F)cc1Cl (stereo unspecified)	-	15.5%
COC(=O)C(N)c1ccn(C)n1 (stereo unspecified)	-	18.87%
CN1CCCC(N(C)S(=O)(=O)Cc2cccc(F)c2)C1 (stereo unspecified)	-	14.42%
O=C(NCc1ccc2c(c1)OCO2)N1CCCCC1	72.65%	73.65%
NC(=O)C(Sc1nncs1)c1ccc(Br)cc1 (stereo unspecified)	72.08%	68.09%
Cc1ccc(C2NCCNC2=O)cc1 (stereo unspecified)	-19.29%	-
O=C1N[C@H]2CCC[C@@H]1CN(Cc1ccsc1)C2	-4.472%	-
CC(Cn1ccnc1)NC(=O)CN1CCCC1=O (stereo unspecified)	-	1.253%
CN(C)C(=O)CCCNC1CCC2(CCNCC2)CC1	-	4.394%
CCS(=O)(=O)NC1CCCNC1 (stereo unspecified)	-	0.7982%
Cn1cc(CN2C(=O)c3ccccc3CS2(=O)=O)cn1	-	26.84%
CNC(=O)Cn1cc(-c2cccc3cnccc23)cn1	-	12.64%
COC(=O)CC1CCCCN1CC(N)=O (stereo unspecified)	6.19%	-
CNC(=O)CN(C)C1CCCc2ccccc21 (stereo unspecified)	-	-3.271%
CCS(=O)(=O)N(C)CCCNc1cccc(C)n1	48.5%	35.35%
CCc1nc(CNC(=O)Cc2nonc2C)cs1	-	20.53%
c1cc(-c2ncco2)ccn1	-6.293%	-
Cn1ncc2c(NCC(=O)N3CCCC3)ncnc21	-	5.754%
CC(C)N(CC(F)F)C(=O)CNC(=O)c1cccs1	-6.718%	-
Cc1ccnc(NC(=O)C2=NN(C)C(=O)CC2)c1	-	-7.699%
N#Cc1ccc(NCC2(O)CCOCC2)cc1Cl	16.44%	-
OCC(O)CSCc1nc(-c2ccc(Cl)cc2)no1 (stereo unspecified)	73.82%	71.19%
COCCNS(=O)(=O)c1ccc2c(c1)CCC(=O)N2	-	7.064%
Cn1c(CN2CCN(CCO)CC2)cc(=O)n(C)c1=O	-	-6.675%
CC(C)N1CCN(C(C)C(=O)NC2CC2)CC1 (stereo unspecified)	-	-0.7931%
COC(C)C(=O)NCc1cnc(C)s1 (stereo unspecified)	-	14.43%
O=C(Nc1ccon1)c1n[nH]cc1I	-	12.71%
Cc1nc(CN2Cc3ccccc3CC2C(N)=O)c[nH]1 (stereo unspecified)	7.638%	-
CN(Cc1ccsc1)S(=O)(=O)c1ccc(C(N)=O)cc1	-	29.63%
Cc1cc(NC(=O)NCCCN2CCCC2=O)no1	2.868%	-
COCCCOC1CN(C(=O)c2cccnc2)C1	17.15%	37.64%
O=C(C1CCC1)N(C1CC1)C1CCS(=O)(=O)C1 (stereo unspecified)	-4.272%	-
CC(=O)c1cccc(-n2nnnc2SCC#N)c1	-5.624%	-
CCOc1ccc(NC(=O)N2CCC(N)C2)cc1C#N (stereo unspecified)	-	39.6%
Cc1ccc(C(=O)N2CCC(F)(F)C(CO)C2)cn1 (stereo unspecified)	-	11.98%
COc1ccc(-n2ccnc2SCC(=O)N(C)C)cc1	-	15.98%
NC(=O)C1(NC(=O)Cc2ccc3ccccc3c2)CC1	-	-7.843%
Cc1nn(C)c(C(=O)NC2CC2)c1Br	-	18.89%
CCc1sc(C(=O)OCC(=O)N2CCNC2=O)cc1C	-	-0.5041%
CC[C@@H](O)CNC(C)c1ccncc1 (stereo partly specified)	-	0.7063%
O=C(CSc1cccs1)NCC(=O)N1CCCC1	-	33.74%
CC(C)CS(=O)(=O)CCNC(=O)Cn1cccnc1=O	-	9.546%
COc1ncccc1CN(C)C(=O)c1ccccc1F	45.11%	59%
Cc1cc(C(=O)NCCCNCc2cccnc2)no1	-	-4.333%
COC(=O)N1CCN(c2ncccn2)CC1	20.64%	-
CC(C)Oc1ccc(C(=O)NCCNC(C)(C)C)cn1	-	11.56%
CCC(OC)C(=O)NC1CCN(C2CC2)CC1 (stereo unspecified)	-16.2%	-
O=C(CSC1=NCCN1)Nc1ccc(F)cc1	-	4.577%
COc1ccnc(NCc2ccco2)n1	15.08%	36.58%
Cc1cc[nH]c(=O)c1	-	1.899%
CCN(CCO)Cc1cc(-c2cccs2)on1	-	50.04%
CC(C)(C)NC(=O)C1CCCCN1 (stereo unspecified)	-	-2.483%
N#Cc1nnc(-c2ccccc2)o1	-	28.03%
CN(C)c1ccc(CNC(=O)NC2CC2)cn1	-	-4.647%
CCC(=O)N1CCCC(NS(C)(=O)=O)C1 (stereo unspecified)	3.302%	-
COc1ccc(-c2cc(NCCO)nc(N)n2)cc1C	51.06%	59.9%
Cc1ccc(S(=O)(=O)NCCN)cc1Br	-	42.12%
CCc1cccc2c1OCCC2N (stereo unspecified)	-	59.64%
CC(C)Cc1nnc(CN)o1	-0.02899%	-
N#CC1CN(C(=O)c2c(F)cccc2Br)CCO1 (stereo unspecified)	17.39%	-
CCN(C)S(=O)(=O)N1CCC[C@H]1CO	-	9.402%
COc1ccc(CNC(=O)CNC2CCCSC2)cc1 (stereo unspecified)	66.05%	67.93%
CNCC1(CO)CCOCC1	-	-18.18%